PubChem BioAssay AID624099, ICCB-Longwood, 2012
Shown is an unselected part of about 21,000 reagents tested. Of all reagents, 497 (2.4%) were called active. 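Higher z means weaker E2 silencing; only reporter increases were scored, and knock-downs that hurt cell survival may mask genuine repressor factors.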 A number with no mark means an inactive call.

- Assay: 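Host factors E2 relies on to silence an HPV18 LCR reporter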 (primary screen)
- Cells: human C33A cervical carcinoma cells (HPV-negative) stably expressing BPV1 E2 and an HPV18 LCR luciferase reporter
- Reagents: siRNA pool against human genes, 40 nM
- Timing: 72 h
- Read-out: 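HPV18 LCR reporter light per well, converted to plate-wise z-scores that exclude control wells, and averaged over triplicate plates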
- Direction: mean z-score and z-score: higher = stronger reporter signal, weaker E2 silencing
- Hit rule: 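Hit if mean z-score reaches 2 and two or more of three replicate z-scores also reach 2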

With knock-down of SERPINB9P1, the screen gave mean z-score 1.08; z-score, replicate A = 1.09; z-score, replicate B = 1.12; z-score, replicate C = 1.03.
Knock-down of TACR3 came out at: mean z-score -0.97; z-score, replicate A = -1.03; z-score, replicate B = -0.91; z-score, replicate C = -0.96.
STX6 gave mean z-score 0.03; z-score, replicate A = 0.17; z-score, replicate B = 0.09; z-score, replicate C = -0.17.
Knock-down of SPTLC1 gave: mean z-score -0.16; z-score, replicate A = -0.9; z-score, replicate B = -0.16; z-score, replicate C = 0.59.
Depletion of KCNMB3 gave: mean z-score -1.53; z-score, replicate A = -1.35; z-score, replicate B = -1.58; z-score, replicate C = -1.67.
Depletion of CNST gave: mean z-score -2.02; z-score, replicate A = -1.97; z-score, replicate B = -1.95; z-score, replicate C = -2.15.

Ordered by “mean z-score” (ascending): 2 of the entries above.
SPTLC1 → mean z-score: -0.16; z-score, replicate A: -0.9; z-score, replicate B: -0.16; z-score, replicate C: 0.59
STX6 → mean z-score: 0.03; z-score, replicate A: 0.17; z-score, replicate B: 0.09; z-score, replicate C: -0.17

Further reagents follow.
For PDE6G, the entry reads mean z-score 1.55; z-score, replicate A = 1.66; z-score, replicate B = 1.35; z-score, replicate C = 1.64.
Against MRM1, the values are mean z-score -0.31; z-score, replicate A = -0.74; z-score, replicate B = 0.15; z-score, replicate C = -0.34.
Against MAEL, the values are mean z-score 1.9; z-score, replicate A = 1.82; z-score, replicate B = 1.5; z-score, replicate C = 2.38.
Knock-down of SMAD5 gave: mean z-score 0.39; z-score, replicate A = 0; z-score, replicate B = 0.47; z-score, replicate C = 0.69.
ELP3 showed mean z-score 1.39; z-score, replicate A = 1.29; z-score, replicate B = 1.37; z-score, replicate C = 1.52.
For ZNF217, the values are mean z-score 0.2; z-score, replicate A = 0.01; z-score, replicate B = 0.18; z-score, replicate C = 0.41.
For ZNF277 the deposit lists mean z-score -1.13; z-score, replicate A = -1.08; z-score, replicate B = -1.18; z-score, replicate C = -1.14.
For NFE2L3 the deposit lists mean z-score -0.67; z-score, replicate A = -0.63; z-score, replicate B = -0.75; z-score, replicate C = -0.64.
